For 17 compounds, SI50 results are on record in US20230104311A1, “NOVEL 6-SUBSTITUTED 7-DEAZAPURINES AND CORRESPONDING NUCLEOSIDES AS MEDICAMENTS” (KATHOLIEKE UNIVERSITEIT LEUVEN, priority 2020, published 2023).

Some results are limits rather than exact numbers.

For the data set, the system named is human norovirus (HuNoV). Description: Inhibition of in vitro replication of genogroup 1 NoV in HG23 NoV replicon cells (qRT-PCR of intracellular RNA). It counts as cell-based. As to conditions: ratio CC50 / EC50.

Regarding `OC[C@H]1O[C@@H](n2ccc3c(C4CCCC4)ncnc32)[C@H](O)[C@@H]1O` [Compound 11k, 6-Cyclopentyl-9-β-D-ribofuranosyl-7-deazapurine], the SI50 is given as 1.
In the case of `CCCc1ncnc2c1ccn2[C@@H]1O[C@H](CO)[C@@H](O)[C@H]1O` [Compound 11e, 6-Propyl-9-β-D-ribofuranosyl-7-deazapurine], the SI50 is on record as over 6274.
In the case of `Cc1ncnc2c1ccn2[C@@H]1O[C@H](CO)[C@@H](O)[C@H]1O` [Compound 11b, 6-Methyl-9-β-D-ribofuranosyl-7-deazapurine] it was 46; in that of `CN(C)c1ccc(-c2ncnc3c2ccn3[C@@H]2O[C@H](CO)[C@@H](O)[C@H]2O)cc1` [Compound 11p, 6-(4-(Dimethylamino)phenyl)-9-β-D-ribofuranosyl-7-deazapurine], over 1; in that of `OC[C@H]1O[C@@H](n2ccc3c(-c4ccccc4)ncnc32)[C@H](O)[C@@H]1O` [Compound 11o, 6-Phenyl-9-β-D-ribofuranosyl-7-deazapurine], over 474.
Under `COc1ccc(-c2ncnc3c2ccn3[C@@H]2O[C@H](CO)[C@@H](O)[C@H]2O)cc1` [Compound 11n, 6-(4-Methoxylphenyl)-9-β-D-ribofuranosyl-7-desazapurine] stands over 1068; under `C[C@@]1(O)[C@H](O)[C@@H](CO)O[C@H]1n1ccc(N)nc1=O` [2’Cmethyl Cytidine, 2′-C-Methyl-cytidine, reference compound], over 10.
For `CC(C)c1ncnc2c1ccn2[C@@H]1O[C@H](CO)[C@@H](O)[C@H]1O` [Compound 11c, 6-Isopropyl-9-β-D-ribofuranosyl-7-deazapurine], the SI50 is over 4120.
Regarding `CC(C)Cc1ncnc2c1ccn2[C@@H]1O[C@H](CO)[C@@H](O)[C@H]1O` [Compound 11i, 6-Isobutyl-9-β-D-ribofuranosyl-7-deazapurine], the SI50 was over 52632.
For the compound `CCCCCc1ncnc2c1ccn2[C@@H]1O[C@H](CO)[C@@H](O)[C@H]1O` [Compound 11f, 6-Pentyl-9-β-D-ribofuranosyl-7-deazapurine], the SI50 is reported as over 119.
Under `CCc1ncnc2c1ccn2[C@@H]1O[C@H](CO)[C@@H](O)[C@H]1O` [Compound 11d, 6-Ethyl-9-β-D-ribofuranosyl-7-deazapurine] stands 438; under `OC[C@H]1O[C@@H](n2ccc3c(C4CCCCC4)ncnc32)[C@H](O)[C@@H]1O` [Compound 11l, 6-Cyclohexyl-9-β-D-ribofuranosyl-7-deazapurine], 235.
In the case of `OC[C@H]1O[C@@H](n2ccc3c(C4CC4)ncnc32)[C@H](O)[C@@H]1O` [Compound 11j, 6-Cycloproyl-9-β-D-ribofuranosyl-7-deazapurine], the SI50 is reported as over 487.
Under `CCCCCCc1ncnc2c1ccn2[C@@H]1O[C@H](CO)[C@@H](O)[C@H]1O` [Compound 11g, 6-Hexyl-9-β-D-ribofuranosyl-7-deazapurine] stands 479; under `CCc1ccc(-c2ncnc3c2ccn3[C@@H]2O[C@H](CO)[C@@H](O)[C@H]2O)cc1` [Compound 11q, 6-(4-Ethylphenyl)-9-β-D-ribofuranosyl-7-deazapurine], over 2.
In the case of `Cc1ccc(-c2ncnc3c2ccn3[C@@H]2O[C@H](CO)[C@@H](O)[C@H]2O)cc1` [Compound 11a, 6-(4-Methylphenyl)-9-β-D-ribofuranosyl-7-deazapurine], the SI50 is reported as over 5291.
`CC(C)c1ccc(-c2ncnc3c2ccn3[C@@H]2O[C@H](CO)[C@@H](O)[C@H]2O)cc1` [Compound 11m, 6-(4-isoproylphenyl)-9-β-D-ribofuranosyl-7-deazapurine]: the SI50 is recorded as over 100000.
